Anti-infective test results gathered from many reports (values: NIAID ChemDB through PubChem).

All rows: growth or infection tests

ECn is the concentration giving n% inhibition of infection, replication or growth. a–b is a range or a potency band. MIC50, MIC90 and the like: level of inhibition, or share of isolates inhibited. Blank or dashed fields: not listed here. Rows are shuffled and stem from different studies.

| smiles | species | strain or isolate | mutations | setting | read by | endpoint | value |
|---|---|---|---|---|---|---|---|
| CC1(C)N=C(N)N=C(N)N1OCCCOc1cc(Cl)c(Cl)cc1Cl | Mycobacterium avium complex | JWT005A | - | - | - | MIC | 1 µg/mL |
| O=c1c(-c2ccccc2)c(O)c2ccccc2n1-c1ccccc1 | Mycobacterium bovis | AN5 lux | - | - | luminescence | MIC90 | 9.5 µM |
| CCc1ccccc1OCCCON1C(N)=NC(N)=NC1(C)C | Mycobacterium bovis BCG | - | Thymidylate synthase (thyA) overexpressing | - | fluorescence | MIC | <1.4 µM |
| COc1ccccc1/C=C/C1=NN(C(=N)N)C(c2ccccc2OC)C1 | Mycobacterium chelonae | - | - | - | resazurin | MIC | 1.78 µM |
| C=C1C(=O)[C@@]23C(=O)O[C@H]4CCC(C)(C)[C@H]5C(=O)OC[C@@]45[C@@H]2CC[C@@H]1[C@H]3OC(=O)c1ccc(F)cc1 | Mycobacterium phlei | ATCC 355 | - | - | resazurin | MIC | 4 µg/mL |
| C=C(CCC=C(C)C)[C@@H]1CC[C@@]2(C)O[C@H]2C1 | Mycobacterium avium intracellulare | ATCC 19709 | - | - | - | EC50 | 10 µg/mL |
| Oc1ccc(-c2n[nH]c(C(F)(F)F)c2-c2ccccc2)c(O)c1 | Mycobacterium marinum | - | - | - | visual reading | MIC | 50 µg/mL |
| CCOC(=O)CCCc1cn(CC2Cc3cn(-c4ccccc4)c4cccc(c34)C(=O)O2)nn1 | Mycobacterium spp. | MC2 6230 | - | - | visual reading | EC50 | >100 µg/mL |
| C=C1C(=O)[C@@]23C(=O)O[C@H]4CCC(C)(C)[C@H]5C(=O)OC[C@@]45[C@@H]2CC[C@@H]1[C@H]3OC(=O)c1ccccc1 | Mycobacterium phlei | ATCC 355 | - | - | resazurin | MIC | 1 µg/mL |
| CCCCCCCNC(=O)NNC(=O)c1ccncc1 | Mycobacterium kansasii | My 6509/96 | - | 21 d | broth dilution | MIC100 | 125 µM |
| CC(=O)NC[C@H]1CN(c2ccc3c(c2)OCc2nccn2-3)C(=O)O1 | Mycoplasma pneumoniae | - | - | - | - | MIC | 4 µg/mL |
| Fc1cc(Br)ccc1Nc1nnc(-c2ccncc2)o1 | Mycobacterium avium | MY330/88 | - | 21 d | broth dilution | MIC100 | >125 µM |
| CC[C@H]1OC(=O)[C@H](C)[C@@H](OC2C[C@@](C)(OC)[C@@H](OC(=O)CCCc3ccccc3)[C@H](C)O2)[C@H](C)[C@@H](O[C@@H]2O[C@H](C)C[C@H](N(C)C)[C@H]2O)C(C)(O)C[C@@H](C)/C(=N\OCCCOc2ccccc2)[C@H](C)[C@@H](O)[C@]1(C)O | Mycobacterium avium complex | 20096 (clarithromycin-resistant) | - | - | - | MIC | 3.13 µg/mL |
| O=c1[nH]c2ccccc2c(O)c1-c1ccccc1 | Mycobacterium bovis | AN5 lux | - | - | luminescence | MIC90 | 7.2 µM |
| COc1cc(NC(C)CCCN)c2nc(C(C)(C)C)cc(C)c2c1Oc1cccc(C(F)(F)F)c1 | Mycobacterium avium intracellulare | - | - | - | - | EC50 | 3 µg/mL |
| CC[C@H]1OC(=O)[C@H](C)[C@@H](O[C@H]2C[C@@](C)(OC)[C@@H](OC(C)=O)[C@H](C)O2)[C@H](C)[C@@H](O[C@@H]2O[C@H](C)C[C@H](N(C)C)[C@H]2O)C(C)(O)C[C@@H](C)/C(=N\OCCCCCc2ccccc2)[C@H](C)[C@@H](O)[C@]1(C)O | Mycobacterium avium complex | 20039 (clarithromycin-susceptible) | - | - | - | MIC | 1.56 µg/mL |
| CCC1CN(c2c(F)cc3c(=O)[nH]c(=O)n(C4CC4)c3c2OC)CCN1 | Mycobacterium smegmatis | A91V mutant | - | - | - | MIC99 | 200 µg/mL |
| CC(=O)NC[C@H]1CN(c2ccc3c(c2)OC(C)(C)c2nccn2-3)C(=O)O1 | Mycoplasma pneumoniae | - | - | - | - | MIC | >32 µg/mL |
| CO[C@H]1/C=C/O[C@@]2(C)Oc3c(C)c(O)c4c(O)c(c5c(c4c3C2=O)NC2(CCN(CC(C)C)CC2)N=5)=NC(=O)/C(C)=C\C=C\[C@H](C)[C@H](O)[C@@H](C)[C@@H](O)[C@@H](C)[C@H](OC(C)=O)[C@@H]1C | Mycobacterium avium intracellulare | 15-Feb | - | - | - | MIC | 1 µg/mL |
| NNC(=O)c1ccncc1 | Mycobacterium bovis BCG | - | DHFR-overexpressing | - | fluorescence | MIC | 0.7 µM |
| C/C=C(/C)C(=O)Oc1ccc(OC)cc1C1OC1C | Mycobacterium avium intracellulare | ATCC 19709 | - | - | - | EC50 | 2.5 µg/mL |
| C=C1C(=O)[C@@]23C(CC[C@@H]1[C@H]2OC(=O)c1ccc(F)cc1)[C@@]12COC3(O)[C@@H](O)[C@@H]1C(C)(C)CC[C@@H]2OC(C)=O | Mycobacterium phlei | ATCC 355 | - | - | resazurin | MIC | 4 µg/mL |
| CC[C@H]1OC(=O)[C@H](C)[C@@H](O[C@H]2C[C@@](C)(OC)[C@@H](OC(C)=O)[C@H](C)O2)[C@H](C)[C@@H](O[C@@H]2O[C@H](C)C[C@H](N(C)C)[C@H]2OC(=O)NNCCOc2ccccc2)C(C)(O)C[C@@H](C)/C(=N\OCCCC2CCCCC2)[C@H](C)[C@@H](O)[C@]1(C)O | Mycobacterium avium complex | 20092 (clarithromycin-resistant) | - | - | - | MIC | 3.13 µg/mL |
| CC(=O)NC[C@H]1CN(c2ccc3c(c2)OCc2nnnn2-3)C(=O)O1 | Mycoplasma pneumoniae | - | - | - | - | MIC | >32 µg/mL |
| CC[C@H]1OC(=O)[C@H](C)[C@@H](OC2C[C@@](C)(OC)[C@@H](OC(=O)CCc3ccccc3)[C@H](C)O2)[C@H](C)[C@@H](O[C@@H]2O[C@H](C)C[C@H](N(C)C)[C@H]2O)C(C)(O)C[C@@H](C)/C(=N\OCCCOc2ccccc2)[C@H](C)[C@@H](O)[C@]1(C)O | Mycobacterium avium complex | 20092 (clarithromycin-resistant) | - | - | - | MIC | 1.56 µg/mL |
| COc1cc(/C=C/C2=NN(C(=N)N)C(c3cc(OC)c(OC)c(OC)c3)C2)cc(OC)c1OC | Mycobacterium chelonae | - | - | - | resazurin | MIC | 10.63 µM |
| C=C1C(=O)[C@@]23C(=O)O[C@H]4CCC(C)(C)[C@H]5[C@H](O)OC[C@@]45[C@@H]2CC[C@@H]1[C@H]3OC(=O)c1cc2ccccc2[nH]1 | Mycobacterium phlei | ATCC 355 | - | - | resazurin | MIC | 1 µg/mL |
| NC[C@H]1O[C@H](O[C@H]2[C@H](O)[C@@H](O[C@H]3O[C@H](CO)[C@@H](O)[C@H](N)[C@H]3O)[C@H](N)C[C@@H]2N)[C@H](N)C[C@@H]1O | Mycobacterium fortuitum | 31 isolates | - | - | - | MIC50 | 64 µg/mL |
| CCCCCCCCCCC(=O)O[C@H]1[C@H](C)OC(O[C@H]2[C@H](C)[C@@H](O[C@@H]3O[C@H](C)C[C@H](N(C)C)[C@H]3O)C(C)(O)C[C@@H](C)/C(=N\OCCCOc3ccccc3)[C@H](C)[C@@H](O)[C@](C)(O)[C@@H](CC)OC(=O)[C@@H]2C)C[C@@]1(C)OC | Mycobacterium avium complex | 20096 (clarithromycin-resistant) | - | - | - | MIC | >50 µg/mL |
| NCC[C@H](O)C(=O)N[C@@H]1C[C@H](N)[C@@H](O[C@H]2O[C@H](CN)[C@@H](O)[C@H](O)[C@H]2O)[C@H](O)[C@H]1O[C@H]1O[C@H](CO)[C@@H](O)[C@H](N)[C@H]1O | Mycobacterium fortuitum | 31 isolates | - | - | - | MIC50 | 8 µg/mL |
| COC(=O)NC[C@H]1CN(c2ccc3c(c2)OCc2nccn2-3)C(=O)O1 | Mycoplasma pneumoniae | - | - | - | - | MIC | 16 µg/mL |
| COc1ccccc1-c1cn(CC2Cc3cn(-c4ccccc4)c4cccc(c34)C(=O)O2)nn1 | Mycobacterium spp. | MC2 6230 | - | - | visual reading | EC50 | >100 µg/mL |
| CCCCCCCCCCO/N=C1\[C@H](C)CC(C)(O)[C@H](O[C@@H]2O[C@H](C)C[C@H](N(C)C)[C@H]2O)[C@@H](C)[C@H](OC2C[C@@](C)(OC)[C@@H](O)[C@H](C)O2)[C@@H](C)C(=O)O[C@H](CC)[C@@](C)(O)[C@H](O)[C@H]1C | Mycobacterium avium complex | 20092 (clarithromycin-resistant) | - | - | - | MIC | 25 µg/mL |
| Cc1c(OCC(F)(F)F)ccnc1CSc1nc2ccccc2[nH]1 | Mycobacterium marinum | M | - | - | resazurin | MIC90 | 100 µM |
| Oc1ccc(CCN=C=S)cc1 | Mycobacterium scrofulaceum | - | - | - | visual reading | MIC | 32 µg/mL |
| CCCCCCCCCCCCc1ccc(NC(=O)C2=CCN(C)[C@@H]([C@H](O[C@@H]3O[C@H](CN)[C@@H](O)[C@H]3O)[C@H]3O[C@@H](n4ccc(=O)[nH]c4=O)[C@H](O)[C@@H]3O)C(=O)N2C)cc1 | Mycobacterium vaccae | ATCC 15483 | - | - | - | MIC | 6.25 µg/mL |
| CCCCCC(CC(=O)N1N=CCCC1C(=O)N[C@H]1COC(=O)C2CCC=NN2C(=O)[C@H](C)NC(=O)[C@@H](CC(C)C)NC1=O)C(=O)O | Mycobacterium aurum | SB66 | - | - | - | MIC | 12.5 µg/mL |
| NCC[C@H](O)C(=O)N[C@@H]1C[C@H](N)[C@@H](O[C@H]2O[C@H](CN)[C@@H](O)[C@H](O)[C@H]2O)[C@H](O)[C@H]1O[C@H]1O[C@H](CO)[C@@H](O)[C@H](N)[C@H]1O | Mycobacterium abscessus | - | - | - | broth dilution | MIC90 | 32 µg/mL |
| O=C1OC(Cn2cc(-c3ccccc3)nn2)Cc2cn(-c3ccccc3)c3cccc1c23 | Mycobacterium spp. | MC2 6230 | - | - | visual reading | EC50 | >100 µg/mL |
| NC[C@@H]1O[C@H](O[C@H]2[C@@H](O)[C@H](O[C@@H]3[C@@H](O)[C@H](N)C[C@H](N)[C@H]3O[C@H]3O[C@H](CN)[C@@H](O)[C@H](O)[C@H]3N)O[C@@H]2CO)[C@H](N)[C@@H](O)[C@@H]1O | Mycobacterium fortuitum | ATCC 6841 | - | - | - | MBC | 64 µg/mL |
| COc1ccccc1SCC1Cc2cn(-c3ccccc3)c3cccc(c23)C(=O)O1 | Mycobacterium spp. | MC2 6230 | - | - | visual reading | EC50 | >100 µg/mL |
| O=c1[nH]c2ccc(O)cc2c(O)c1-c1ccccc1 | Mycobacterium bovis | AN5 lux | - | - | luminescence | MIC90 | 10.4 µM |
| CC[C@H]1OC(=O)[C@H](C)[C@@H](O[C@H]2C[C@@](C)(OC)[C@@H](O)[C@H](C)O2)[C@H](C)[C@@H](O[C@@H]2O[C@H](C)C[C@H](N(C)C)[C@H]2O)[C@](C)(O)C[C@@H](C)CN(C)[C@H](C)[C@@H](O)[C@]1(C)O | Mycobacterium abscessus | DSM44196 | - | - | broth dilution / visual reading | MIC100 | 1–2 µg/mL |
| COc1cccc2c(O)c(-c3ccccc3)c(=O)[nH]c12 | Mycobacterium bovis | AN5 lux | - | - | luminescence | MIC90 | 8.6 µM |
| CC(C)N=C(N)/N=C(\N)NOCCCOc1cc(Cl)c(Cl)cc1Cl | Mycobacterium avium complex | F8074 | - | - | - | MIC | 16 µg/mL |
| C=C1C(=O)[C@@]23C(=O)O[C@H]4CCC(C)(C)[C@H]5C(=O)OC[C@@]45[C@@H]2CC[C@@H]1[C@H]3OC(=O)c1cnccn1 | Mycobacterium phlei | ATCC 355 | - | - | resazurin | MIC | 2 µg/mL |
| CC(=O)NC[C@H]1CN(c2ccc3c(c2)CCc2nccn2-3)C(=O)O1 | Mycoplasma pneumoniae | - | - | - | - | MIC | 4 µg/mL |
| CCOc1cc(O)c(-c2n[nH]c(C(F)(F)F)c2-c2ccccc2)cc1CC | Mycobacterium marinum | - | - | - | visual reading | MIC | >50 µg/mL |
| Cc1ccccc1/C=C/C1=NN(C(=N)N)C(c2ccccc2C)C1 | Mycobacterium chelonae | - | - | - | resazurin | MIC | 3.92 µM |
| CCCCCCNNC(=O)O[C@H]1[C@H](O[C@@H]2[C@@H](C)[C@H](O[C@H]3C[C@@](C)(OC)[C@@H](OC(C)=O)[C@H](C)O3)[C@@H](C)C(=O)O[C@H](CC)[C@@](C)(O)[C@H](O)[C@@H](C)/C(=N/OCCCC3CCCCC3)[C@H](C)CC2(C)O)O[C@H](C)C[C@@H]1N(C)C | Mycobacterium avium complex | 20039 (clarithromycin-susceptible) | - | - | - | MIC | 1.56 µg/mL |
| COc1ccccc1-c1c(-c2ccc(OCc3ccccc3)cc2O)n[nH]c1C(F)(F)F | Mycobacterium marinum | - | - | - | visual reading | MIC | >50 µg/mL |

Repeating the final 8 entries:

smiles	species	strain or isolate	mutations	setting	read by	endpoint	value
COc1cccc2c(O)c(-c3ccccc3)c(=O)[nH]c12	Mycobacterium bovis	AN5 lux	-	-	luminescence	MIC90	8.6 µM
CC(C)N=C(N)/N=C(\N)NOCCCOc1cc(Cl)c(Cl)cc1Cl	Mycobacterium avium complex	F8074	-	-	-	MIC	16 µg/mL
C=C1C(=O)[C@@]23C(=O)O[C@H]4CCC(C)(C)[C@H]5C(=O)OC[C@@]45[C@@H]2CC[C@@H]1[C@H]3OC(=O)c1cnccn1	Mycobacterium phlei	ATCC 355	-	-	resazurin	MIC	2 µg/mL
CC(=O)NC[C@H]1CN(c2ccc3c(c2)CCc2nccn2-3)C(=O)O1	Mycoplasma pneumoniae	-	-	-	-	MIC	4 µg/mL
CCOc1cc(O)c(-c2n[nH]c(C(F)(F)F)c2-c2ccccc2)cc1CC	Mycobacterium marinum	-	-	-	visual reading	MIC	>50 µg/mL
Cc1ccccc1/C=C/C1=NN(C(=N)N)C(c2ccccc2C)C1	Mycobacterium chelonae	-	-	-	resazurin	MIC	3.92 µM
CCCCCCNNC(=O)O[C@H]1[C@H](O[C@@H]2[C@@H](C)[C@H](O[C@H]3C[C@@](C)(OC)[C@@H](OC(C)=O)[C@H](C)O3)[C@@H](C)C(=O)O[C@H](CC)[C@@](C)(O)[C@H](O)[C@@H](C)/C(=N/OCCCC3CCCCC3)[C@H](C)CC2(C)O)O[C@H](C)C[C@@H]1N(C)C	Mycobacterium avium complex	20039 (clarithromycin-susceptible)	-	-	-	MIC	1.56 µg/mL
COc1ccccc1-c1c(-c2ccc(OCc3ccccc3)cc2O)n[nH]c1C(F)(F)F	Mycobacterium marinum	-	-	-	visual reading	MIC	>50 µg/mL